Source: ChEMBL document CHEMBL1122593, “Phosphorus-nitrogen compounds. 24. Phosphoramide mustard carrier derivatives” (1984)

System: P388
Assay: Antitumor activity against P388 Lymphocytic leukemia and treated mean survival time per control mean survival time was determined at 100 mg/kg
Details: Mus musculus

O=c1ccc2cc3ccoc3c(OP(=O)(Cl)N(CCCl)CCCl)c2o1 (stereo unspecified)
T/C: 128%
